Results taken from patent US20060035245, “Modulators of enzymatic nucleic acid elements mobilization” (published 2006).

Key:
[1] = target: T1, Tn5 transposase hyperactive mutant (EK54, MA56, LP372) E54K,M56A,L372P (UniProt Q46731); experiment: EMSA; details: binding and strand cleavage; 10 mM MgAc, 37 C; EDTA inhibits cleavage; purified recombinant protein; label: fluorescein 5' ends
T1 sequence (looked up, limits assumed): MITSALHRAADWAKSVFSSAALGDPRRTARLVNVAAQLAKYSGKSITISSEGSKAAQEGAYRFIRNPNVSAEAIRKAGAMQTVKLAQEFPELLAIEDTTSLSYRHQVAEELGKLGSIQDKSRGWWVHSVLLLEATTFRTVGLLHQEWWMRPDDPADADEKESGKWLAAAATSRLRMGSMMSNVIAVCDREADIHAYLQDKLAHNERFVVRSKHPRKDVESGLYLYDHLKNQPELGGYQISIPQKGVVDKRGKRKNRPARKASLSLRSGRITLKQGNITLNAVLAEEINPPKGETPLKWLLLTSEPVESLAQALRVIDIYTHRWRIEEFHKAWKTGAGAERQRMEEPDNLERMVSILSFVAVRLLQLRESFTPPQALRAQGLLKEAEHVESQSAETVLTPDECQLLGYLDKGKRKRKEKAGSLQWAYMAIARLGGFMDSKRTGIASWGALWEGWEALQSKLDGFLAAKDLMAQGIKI

[2] = target: T1, Tn5 transposase hyperactive mutant (EK54, MA56, LP372) E54K,M56A,L372P; experiment: FP; details: binding and strand cleavage; 10 mM MgAc, 37 C; cleavage inhibited by EDTA while complex retained; purified recombinant protein; label: rhodamine green 5' end of non-transferred strand

Row | Sequence | activity on this sequence [1] | activity on this sequence [2]
1 | GGCCACGACACGCTCCCGCGCTGTCTCTTATACACATCTTGAGTGAGTGAGCATGCATGT (double strand) [60 bp Tn5 substrate (20 bp donor + 40 bp transposon)] | active | 
2 | TGCAGGTCGACTGTCTCTTATACACATCTTGAGTGAGTGAGCATGCATGT (double strand) [50 bp Tn5 substrate (10 bp donor + 40 bp transposon)] |  | active

Where a protein sequence is shown, tags need not be part of it.
